Pooled drug test results. Numbers come from NIAID ChemDB, via PubChem.

All rows: growth or infection tests; agent: HIV-1; read-out: EC50

ECn is the concentration giving n% inhibition of infection, replication or growth. Blank or dashed fields: not listed here. Conditions beyond the fields shown may differ between rows.

{"SMILES": "Cc1ccc(NC(=O)CSc2nnc(C)n2-c2cc(C)c(C)c3ccccc23)c(Cl)c1", "mutations": "Y188L", "cell line": "HeLa", "result": "0.158 µM"}
{"SMILES": "NC(=O)c1cn([C@@H]2O[C@@H](CO)[C@H](O)[C@H]2F)nn1", "result": ">100 µM"}
{"SMILES": "CC[C@H](C)[C@H]1NC(=O)[C@@H](NC(=O)[C@@H](CC(C)C)N(C)S(=O)(=O)c2ccc(C)cc2)[C@@H](C)OC(=O)[C@H](Cc2ccc(OC)cc2)N(C)C(=O)[C@@H]2CCCN2C(=O)[C@H](CC(C)C)NC(=O)[C@H](C(C)C)OC(=O)C[C@@H]1O", "strain or isolate": "NL4-3", "cell line": "PBMC", "result": "17.3 µM"}
{"SMILES": "NC(=O)c1nnn(C2OC(CO)C(O)C2F)c1N", "result": ">100 µM"}
{"SMILES": "O=c1[nH]cnc2c1ncn2[C@H]1CC[C@@H](CO)O1", "strain or isolate": "DAS", "cell line": "Monocytes/macrophages", "result": "0.05 µM"}
{"SMILES": "Nc1ncnc2c1ncn2/C=C1/C[C@@H]1CO", "cell line": "CEM + CEM-SS", "result": ">100 µM"}
{"SMILES": "O=c1[nH]cnc2c1ncn2[C@H]1CC[C@@H](CO)O1", "cell line": "Primary lymphocytes + Lymphocytes", "result": "0.5 µM"}
{"SMILES": "CCCN(C(=O)OCc1ccc([N+](=O)[O-])cc1)C1CCN(CC[C@H](CN(C)S(=O)(=O)c2ccccc2)c2ccccc2)CC1", "strain or isolate": "YU-2 (M-tropic)", "cell line": "MAGI + MAGI-CCR5", "result": "<0.02 µM"}
{"SMILES": "Cc1cc(SC2=C(O)CC(CCc3ccc(O)cc3)(C3CCCCC3)OC2=O)c(C(C)(C)C)cc1OS(=O)(=O)N(C)C", "strain or isolate": "IIIB", "cell line": "CEM", "result": "5 µM"}
{"SMILES": "CN1[C@@H](c2cccc(Cl)c2)c2ccccc2S1(=O)=O", "result": "0.074 µM"}
{"SMILES": "Nc1ccn([C@H]2CC[C@@H](CO)O2)c(=O)n1", "cell line": "MM + M/M", "result": "0.003 µM"}
{"SMILES": "Cc1cn([C@H]2C[C@H](N=[N+]=[N-])[C@@H](CO)O2)c(=O)[nH]c1=O", "strain or isolate": "HE", "cell line": "CEM", "result": "0.0086 µM"}
{"SMILES": "Nc1ncnc2c1ncn2/C=C1/C[C@H]1CO", "cell line": "CEM + CEM-SS", "result": "11 µM"}
{"SMILES": "CN(C)c1ccc(-n2c(SCC(=O)Nc3ccc(S(N)(=O)=O)cc3Cl)nnc2C(F)(F)F)c2ccccc12", "cell line": "HeLa", "result": "0.002 µM"}
{"SMILES": "Cc1ccnc2c1NC(=O)c1cccnc1N2C1CC1", "mutations": "RT-L74V Y181C", "cell line": "MT-4", "result": "<3 µM"}
{"SMILES": "Cc1cn([C@@H]2O[C@H](CO[Si](C)(C)C(C)(C)C)C3(OS(=O)(=O)C=C3N)[C@H]2O[Si](C)(C)C(C)(C)C)c(=O)n(C)c1=O", "cell line": "MM + M/M", "result": "0.08 µg/mL"}
{"SMILES": "O=C(Nc1ncc[nH]1)c1cccc(CN2C(=O)N(Cc3ccccc3)[C@H](Cc3ccccc3)[C@H](O)[C@@H](O)[C@H]2Cc2ccccc2)c1", "strain or isolate": "RF", "cell line": "MT-2", "result": "<0.021 µM"}
{"SMILES": "Nc1nc(=O)n([C@@H]2CS[C@H](CO)O2)cc1F", "strain or isolate": "IIIB", "cell line": "MT-2", "result": "0.6 µM"}
{"SMILES": "Nc1ncnc2c1ncn2C[C@@H](CF)OCP(=O)(O)O", "strain or isolate": "IIIB", "cell line": "MT-2", "result": ">7.04 µM"}
{"SMILES": "C[C@H](Cn1cnc2c(N)ncnc21)OCP(=O)(O)O", "cell line": "MM + M/M", "result": "0.04 µM"}
{"SMILES": "CC[C@H](C)[C@H](NC(=O)Cc1ccccn1)C(=O)N[C@@H](Cc1ccccc1)[C@@H](O)[C@H](O)[C@H](Cc1ccccc1)NC(=O)[C@@H](NC(=O)Cc1ccccn1)[C@@H](C)CC", "strain or isolate": "RF", "cell line": "MT-2", "result": "0.35 µg/mL"}
{"SMILES": "O=c1[nH]cnc2c1ncn2[C@H]1CS[C@@H](CO)S1", "cell line": "MT-4", "result": ">100 µg/mL"}
{"SMILES": "Nc1nc(=O)n([C@@H]2CC[C@H](CO)O2)cc1F", "strain or isolate": "IIIB", "cell line": "MT-2", "result": "0.45 µM"}
{"SMILES": "COCCCCCCCCCCC(=O)OC[C@H]1O[C@@H](n2cc(C)c(=O)[nH]c2=O)C[C@@H]1N=[N+]=[N-]", "strain or isolate": "IIIB", "cell line": "CEM + CEM-SS", "result": "0.0088 µM"}
{"SMILES": "CCOC(=O)c1cnnn1C1OC(COC(=O)c2ccccc2)C(OC(=O)c2ccccc2)C1F", "result": ">100 µM"}
{"SMILES": "CN1[C@@H](c2cccc(Br)c2)c2ccccc2S1(=O)=O", "result": "0.086 µM"}
{"SMILES": "C[C@H](Cn1cnc2c(N)nc(N)nc21)OCP(=O)(O)O", "cell line": "MM + M/M", "result": "0.02 µM"}
{"SMILES": "Cn1c2ccccc2c2c1cc(C#N)c(=O)n2-c1ccc([N+](=O)[O-])cc1", "mutations": "TAM1 (M41L D67N L210W T215Y)", "strain or isolate": "HXB2", "cell line": "MT-2", "result": "110.9 µM"}
{"SMILES": "CCCCCSCCCCCCCC(=O)OC[C@H]1O[C@@H](n2cc(C)c(=O)[nH]c2=O)C[C@@H]1N=[N+]=[N-]", "strain or isolate": "IIIB", "cell line": "CEM + CEM-SS", "result": "0.0055 µM"}
{"SMILES": "Nc1nc(=O)n([C@@H]2CS[C@H](CO)O2)cc1F", "cell line": "MT-4", "result": "0.14 µg/mL"}
{"SMILES": "Nc1nc(N)c2ncn([C@H]3CC[C@@H](CO)O3)c2n1", "strain or isolate": "IIIB", "cell line": "MT-4", "result": "14 µM"}
{"SMILES": "Nc1nc2c(ncn2[C@H]2CS[C@@H](CO)S2)c(=O)[nH]1", "cell line": "MT-4", "result": ">100 µg/mL"}
{"SMILES": "CC(C)Nc1cccnc1N1CCN(C(=O)c2cc3cc(N=CN(C)C)ccc3[nH]2)CC1", "strain or isolate": "LAV", "cell line": "MT-2", "result": "0.22 µM"}
{"SMILES": "O=c1[nH]cnc2c1ncn2[C@H]1CC[C@@H](CO)O1", "strain or isolate": "IIIB", "cell line": "MT-2", "result": "20 µM"}
{"SMILES": "O=C(Nc1nccs1)c1cccc(CN2C(=O)N(Cc3ccccc3)[C@H](Cc3ccccc3)[C@H](O)[C@@H](O)[C@H]2Cc2ccccc2)c1", "strain or isolate": "RF", "cell line": "MT-2", "result": "<0.074 µM"}
{"SMILES": "Nc1ccn([C@H]2CC[C@@H](CO)O2)c(=O)n1", "mutations": "RT-D67N K70R V108A I135T", "strain or isolate": "IIIB-AZT-2 (RT D67N K70R V108A I135T)", "cell line": "MT-4", "result": "0.6 µM"}
{"SMILES": "OC[C@@H]1SC[C@H](n2cnc3c(Cl)ncnc32)S1", "cell line": "MT-4", "result": ">10 µg/mL"}
{"SMILES": "COCCCCCCCCCCCC(=O)OC[C@H]1O[C@@H](n2cc(C)c(=O)[nH]c2=O)C[C@@H]1N=[N+]=[N-]", "strain or isolate": "IIIB", "cell line": "CEM + CEM-SS", "result": "0.0306 µM"}
{"SMILES": "Nc1nc2c(ncn2C2CC=C[C@H]2CO)c(=O)[nH]1", "strain or isolate": "HE", "cell line": "CEM", "result": ">100 µM"}
{"SMILES": "COP(=O)(N[C@H]1C[C@H](n2cc(C)c(=O)[nH]c2=O)O[C@@H]1CO)OC", "strain or isolate": "LAV", "cell line": "PBMC", "result": ">100 µM"}
{"SMILES": "Cc1cn([C@H]2C=C[C@@H](CO)O2)c(=O)[nH]c1=O", "strain or isolate": "HE", "cell line": "CEM", "result": "0.43 µM"}
{"SMILES": "COC(=O)C(C)NP(=O)(OC[C@@H]1C/C1=C/n1cnc2c(N)nc(N)nc21)Oc1ccccc1", "cell line": "CEM + CEM-SS", "result": "0.55 µM"}
{"SMILES": "CC(C)(C)NC(=O)[C@@H]1C[C@@H]2CCCC[C@@H]2CN1C[C@@H](O)[C@H](Cc1ccccc1)NC(=O)[C@H](CC(N)=O)NC(=O)OCc1ccccc1", "strain or isolate": "A012 PRE-AZT", "cell line": "PBMC", "result": "0.144 µM"}
{"SMILES": "Nc1nc2c(ncn2[C@H]2CO[C@@H](CO)O2)c(=O)[nH]1", "strain or isolate": "IIIB", "cell line": "MT-2", "result": "0.045 µM"}
{"SMILES": "Cc1cn([C@H]2C[C@H](N=[N+]=[N-])[C@@H](COC(=O)CCCCCCCCCCCF)O2)c(=O)[nH]c1=O", "strain or isolate": "IIIB", "cell line": "CEM + CEM-SS", "result": "0.124 µM"}
{"SMILES": "Cc1cn([C@H]2C=C[C@@H](COP3(=O)OCc4c(Cl)cccc4O3)O2)c(=O)[nH]c1=O", "cell line": "CEM + CEM/O", "result": "0.087 µM"}
{"SMILES": "Cc1cn([C@H]2C[C@H](OC(N)=S)[C@@H](CO)O2)c(=O)[nH]c1=O", "strain or isolate": "LAV", "cell line": "PBMC", "result": ">100 µM"}
{"SMILES": "CCOC(=O)c1cn(C2OC(COC(=O)c3ccccc3)C(OC(=O)c3ccccc3)C2F)nn1", "result": ">100 µM"}
{"SMILES": "CC(C)[C@H](NC(=O)OCc1ccccc1)C(=O)N[C@@H](Cc1ccccc1)[C@@H](O)[C@H](O)[C@H](Cc1ccccc1)NC(=O)[C@@H](NC(=O)OCc1ccccc1)C(C)C", "strain or isolate": "RF", "cell line": "MT-2", "result": "<0.195 µM"}
{"SMILES": "Nc1ncnc2c1ncn2C=C1CC1CO", "cell line": "MT-4", "result": "26 µM"}
{"SMILES": "CC(=O)Oc1ccc(/C=C/C(=O)O[C@@H](C(=O)O)[C@@H](OC(=O)/C=C/c2ccc(OC(C)=O)c(OC(C)=O)c2)C(=O)O)cc1OC(C)=O", "mutations": "AMD3100-resistant", "strain or isolate": "NL4-3", "cell line": "MT-4", "result": ">74 µM"}
{"SMILES": "NC(=S)N/N=C(\\c1ccccn1)C12CC3CC(CC(C3)C1)C2", "strain or isolate": "IIIB", "cell line": "MT-4", "result": "214 µM"}
{"SMILES": "Cc1nnc(SCC(=O)Nc2ccccc2Br)n1-c1cccc2ccccc12", "mutations": "Y188L", "cell line": "HeLa", "result": "0.724 µM"}
{"SMILES": "CCCN(C(=O)OCc1ccccc1)C1CCN(CCC(CN(C)S(=O)(=O)c2ccccc2)c2ccccc2)CC1", "strain or isolate": "BaL", "cell line": "MAGI + MAGI-CCR5", "result": ">0.3 µM"}
{"SMILES": "Cc1cn([C@H]2C[C@H](N=[N+]=[N-])[C@@H](CO)O2)c(=O)[nH]c1=O", "cell line": "Primary lymphocytes + Lymphocytes", "result": "0.2 µM"}
{"SMILES": "Nc1ccn([C@H]2CC[C@@H](CO)O2)c(=O)n1", "strain or isolate": "RF", "cell line": "MT-2", "result": "0.08 µg/mL"}
{"SMILES": "Cc1cn([C@H]2C=C[C@@H](COP3(=O)Oc4ccccc4C(C)O3)O2)c(=O)[nH]c1=O", "cell line": "CEM + CEM/O", "result": "0.22 µM"}
{"SMILES": "O=C(Nc1nc2ccccc2[nH]1)c1cccc(CN2C(=O)N(CC3CC3)[C@H](Cc3ccccc3)[C@H](O)[C@@H](O)[C@H]2Cc2ccccc2)c1", "strain or isolate": "RF", "cell line": "MT-2", "result": "<0.017 µM"}
{"SMILES": "CC(C)=C1C=C(C(C)C)C(O)CC1", "result": "50 µM"}
{"SMILES": "Cc1cn([C@H]2C[C@H](N=[N+]=[N-])[C@@H](COC(=O)CCCCCCCCCCBr)O2)c(=O)[nH]c1=O", "strain or isolate": "IIIB", "cell line": "CEM + CEM-SS", "result": "0.0073 µM"}

Repeating the first 8 entries:

SMILES	mutations	strain or isolate	cell line	result
Cc1ccc(NC(=O)CSc2nnc(C)n2-c2cc(C)c(C)c3ccccc23)c(Cl)c1	Y188L	-	HeLa	0.158 µM
NC(=O)c1cn([C@@H]2O[C@@H](CO)[C@H](O)[C@H]2F)nn1	-	-	-	>100 µM
CC[C@H](C)[C@H]1NC(=O)[C@@H](NC(=O)[C@@H](CC(C)C)N(C)S(=O)(=O)c2ccc(C)cc2)[C@@H](C)OC(=O)[C@H](Cc2ccc(OC)cc2)N(C)C(=O)[C@@H]2CCCN2C(=O)[C@H](CC(C)C)NC(=O)[C@H](C(C)C)OC(=O)C[C@@H]1O	-	NL4-3	PBMC	17.3 µM
NC(=O)c1nnn(C2OC(CO)C(O)C2F)c1N	-	-	-	>100 µM
O=c1[nH]cnc2c1ncn2[C@H]1CC[C@@H](CO)O1	-	DAS	Monocytes/macrophages	0.05 µM
Nc1ncnc2c1ncn2/C=C1/C[C@@H]1CO	-	-	CEM + CEM-SS	>100 µM
O=c1[nH]cnc2c1ncn2[C@H]1CC[C@@H](CO)O1	-	-	Primary lymphocytes + Lymphocytes	0.5 µM
CCCN(C(=O)OCc1ccc([N+](=O)[O-])cc1)C1CCN(CC[C@H](CN(C)S(=O)(=O)c2ccccc2)c2ccccc2)CC1	-	YU-2 (M-tropic)	MAGI + MAGI-CCR5	<0.02 µM